# PSTVd stem 3 mutant pool in Nicotiana benthamiana

Data from the supplement of Wu et al. 2024, doi:10.1371/journal.ppat.1012142.

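A pool of all variants was put on leaves of three Nicotiana benthamiana plants. Progeny were sequenced from the inoculated region (day 5), the margin of the inoculated leaf (day 10) and systemic leaves (day 12).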

PSTVd intermediate strain, stem 3: wild type GUGGUUCCGGAACCGC, pool pattern GUGGUUCCGNANNCNN; upper and lower strand joined, each 5' to 3', the first 8 letters being the upper strand.

Numbers give reads per thousand; 0 = not seen among the reads, higher = more abundant. Each value is the mean of three plants. "Pool" is the share in the plasmid pool used as inoculum, on the same scale. The inoculated region was read from the minus strand, the other sites from the plus strand.

sequence	pool	inoculated region	leaf margin	systemic leaves
GUGGGUCCGAAAACGA	0.0154	0	0	0
GUGGGUCCGCAUACUU	0.0154	0	0	0
GUGGUUCAGUAUGCCU	0.0154	0	0	0
GUGGUUCCGAAAUCGC	0.846	0.749	0	0
GUGGUUCCGAAGGCUG	0.646	0.794	0.193	0
GUGGUUCCGAAUACUU	0.908	0.793	0.0226	0
GUGGUUCCGAAUCCUC	0.785	0.340	0.0332	0
GUGGUUCCGCACACUC	0.800	0.256	0.0200	0
GUGGUUCCGCACCCAA	0.723	0.282	0	0
GUGGUUCCGCACGCAC	0.739	0.343	0.0106	0
GUGGUUCCGCAUACAC	1.09	0.338	0.0335	0
GUGGUUCCGCAUCCAA	0.939	0.300	0.00944	0
GUGGUUCCGCAUCCAC	0.923	0.357	0	0
GUGGUUCCGGAACCAU	1.00	0.749	0.498	0
GUGGUUCCGGAAUCUA	2.45	1.27	0	0.0621
GUGGUUCCGGACGCGA	0.939	0.292	0.0212	0
GUGGUUCCGGAGACUC	0.923	0.691	0.232	0
GUGGUUCCGGAGUCAC	0.769	0.792	0.445	0
GUGGUUCCGGAGUCCC	0.877	0.815	0.0120	0
GUGGUUCCGGAUGCUA	0.816	0.297	0.0189	0
GUGGUUCCGGAUUCGA	0.877	0.306	0	0
GUGGUUCCGGAUUCUU	0.785	0.642	0.169	0
GUGGUUCCGUAAACUU	1.37	0.772	0	0.0267
GUGGUUCCGUAAGCAA	0.677	0.256	0.00944	0
GUGGUUCCGUAAGCAU	1.51	1.04	0	0
GUGGUUCCGUAAUCCC	0.739	0.423	0.0106	0.0124
GUGGUUCCGUACACCC	0.816	0.324	0.0332	0
GUGGUUCCGUACACCG	0.831	0.311	0.0106	0
GUGGUUCCGUACUCAA	1.63	1.49	0.0120	0.0745
GUGGUUCCGUACUCAC	0.785	0.840	0.0963	0
GUGGUUCCGUAGCCAC	1.43	0.924	0.00944	0.0808
GUGGUUCCGUAGCCGU	1.46	0.958	0	0
GUGGUUCCGUAGGCGG	1.26	0.605	0.326	0.155
GUGGUUCCGUAUACCG	0.800	0.310	0.0361	0
GUGGUUCCGUAUUCCA	1.00	0.899	0.259	0
GUUGUUCCGGAGGCGG	0.0154	0.00901	0	0
GUUGUUCCGGAUCCCG	0.0154	0	0	0
GUUGUUCCGUAACCGC	0.0154	0.0179	0	0.0577

The first 5 entries again:

GUGGGUCCGAAAACGA (pool 0.0154): inoculated region 0; leaf margin 0; systemic leaves 0.
GUGGGUCCGCAUACUU (pool 0.0154): inoculated region 0; leaf margin 0; systemic leaves 0.
GUGGUUCAGUAUGCCU (pool 0.0154): inoculated region 0; leaf margin 0; systemic leaves 0.
GUGGUUCCGAAAUCGC (pool 0.846): inoculated region 0.749; leaf margin 0; systemic leaves 0.
GUGGUUCCGAAGGCUG (pool 0.646): inoculated region 0.794; leaf margin 0.193; systemic leaves 0.

The authors trace changes outside the varied positions to PCR and sequencing errors or to mutation in the plant; presence does not show that a variant is infectious alone. Wild type was 17.3 per thousand in the pool and the most common sequence in every sample (inoculated region 330, 345, 235; leaf margin 794, 766, 816; systemic leaves 830, 792, 869). Samples held 27,691 to 54,225 reads, so the smallest values rest on one or two reads.